According to PubChem BioAssay AID720533 (National Center for Advancing Translational Sciences (NCATS), 2013):
Where “and” joins values, the source holds several entries; their conditions need not be identical. Equal values may be shown once. This list holds what a sample rich in hits left over. Inconclusive results are not listed. Calls of active or inactive are those of the source. Calls come from the whole dose curve; tested in HEK293 cells.

Test: qHTS for Inhibitors of binding or entry into cells for Lassa Virus
Settings: Lassa virus pseudotyped entry inhibition, cell-based qHTS
% is set by controls: 0 for no effect and ±100 for the full control effect.

SMILES	activity change, negative = inhibition (at 17.8 µM (top of the series))	activity change, negative = inhibition (at 49.2 µM (top of the series))
CC(Cc1ccc(O)cc1)NCC(O)c1cc(O)cc(O)c1 (stereo not given)	inactive: -2.31%	inactive: -14.1%
COc1ccc(C[C@H](C)NC[C@@H](O)c2ccc(O)c(NC=O)c2)cc1	–	inactive: -11.9%
Clc1ccc(N2CCN(Cc3c[nH]c4ncccc34)CC2)cc1	–	inactive: -12.3% and inactive: 12%
COc1ccc(C[C@@H](C)NC[C@H](O)c2ccc(O)c(NC=O)c2)cc1	–	inactive: -17.8%
